Usually Kd stands for the concentration at which binding is half-saturated. Low readings indicate higher affinity, high ones lower affinity. The IC50 is the midpoint of a concentration-inhibition curve. The low end stands for greater potency, the high end for weaker potency.

Kd and IC50 data for 13 molecules are collected here from patent publication US20040132121A1, “Method of identifying antibacterial compounds” (priority 2000, published 2004).

Several values for one entry are separate records, joined by “and”; a condition that tells them apart may be missing. Identical values can stand only once.

For one assay, the target named is T1, Escherichia coli β subunit of DNA Polymerase III (β protein) (Escherichia coli), P0A988.
T1 chain: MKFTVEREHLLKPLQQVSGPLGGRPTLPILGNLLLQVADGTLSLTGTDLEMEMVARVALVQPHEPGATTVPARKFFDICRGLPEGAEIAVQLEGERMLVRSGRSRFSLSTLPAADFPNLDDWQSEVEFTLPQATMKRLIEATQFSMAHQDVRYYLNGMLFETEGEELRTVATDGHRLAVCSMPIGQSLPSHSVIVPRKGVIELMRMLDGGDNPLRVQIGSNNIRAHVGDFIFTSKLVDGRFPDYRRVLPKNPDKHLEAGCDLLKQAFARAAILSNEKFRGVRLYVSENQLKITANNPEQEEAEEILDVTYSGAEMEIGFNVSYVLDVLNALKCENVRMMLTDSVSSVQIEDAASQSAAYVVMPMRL
Test: not given
IGQLDMFGV (modifications not checked) [biotinylated peptide 1]: the Kd was found to be 0.558 µM.
Molecule IGQLDLFGV (modifications not checked) [biotinylated peptide 14] had a Kd of 0.778 µM.
As to IGQLSLFGV (modifications not checked) [pep13 …], the IC50 was 0.44 µM and 0.55 µM.
The molecule IGQLSLFGV (modifications not checked) [biotinylated peptide 13] returned a dissociation constant Kd of 0.8 µM.
IGQLDLFGV (modifications not checked) [pep14 …]: the IC50 is 0.4 µM and 0.5 µM.
With IGQLDMFGV (modifications not checked) [pep1 …], the IC50 was 0.92 µM and 1.01 µM.

The target in the next assay is T1, Escherichia coli β subunit of DNA ….
Test: not given
This is another data set of the same source.
On to IGQLGLFGV (modifications not checked) [peptide 110f … (PolB2 motif)], for which the IC50 is 17.5 µM and 9.5 µM.
As for IGQLSLFGV (modifications not checked) [pep13 …], the IC50 is 4.9 µM and 5.9 µM.
For the molecule IGQLNLFGV (modifications not checked) [peptide 110d … (UmuC2 motif)], the IC50 is 7.8 µM and 11.5 µM.
With IGQMSLLGV (modifications not checked) [peptide 110e … (MutS1 motif)], the IC50 is 9.7 µM and 7 µM.
As for IGQLSLPLGV (modifications not checked) [peptide 110c … (DnaA2 motif)], the IC50 was 3.4 µM and 3.3 µM.
Take IGQLVLGLGV (modifications not checked) [peptide 110b … (DinB1 motif)]: the IC50 is 9.3 µM and 6.8 µM.

The target is the same in the next assay. The experiment in a line: α:β assay: inhibition of β binding to plate-coated α.
As for IGQAMSLFGV (modifications not checked) [peptide 110a … (delta motif)], the IC50 came to 27 µM. This lies in the double-digit micromolar range.
IGQASMFGV (modifications not checked) [pep2 …] came in with an IC50 of 860 µg/mL.
